A mixed list of measured activities; the numbers were collected in NIAID ChemDB.

Shared fields: growth or infection tests; agent: Aspergillus fumigatus

Blank or dashed fields: not listed here. Rows are shuffled and stem from different studies. MIC50, MIC90 and the like: level of inhibition, or share of isolates inhibited.

smiles	strain	endpoint	method	result
COC(=O)N[C@H](C(=O)NN(CC[C@@]1(Cc2ccccc2)C(=O)N(C2c3ccccc3C[C@H]2O[Si](C)(C)C(C)(C)C)C[C@@H]1O[Si](C)(C)C(C)(C)C)Cc1ccc(Br)cc1)C(C)(C)C	RCMB 002003	MIC	agar	15.6 µg/mL
CCCCCCCCCCS(=O)(=O)[C@H](C)[C@](O)(Cn1cncn1)c1ccc(F)cc1F	MTU6001	MIC	-	3.13 µg/mL
CCC(C)CCCCCCCCC1CC(=O)NCC(=O)N[C@@H](CCCN)C(=O)N[C@@H](C(C)C)C(=O)N1	IFM41088	MIC	-	>80 µg/mL
C[C@@H](c1ncncc1F)[C@](O)(Cn1cncn1)c1ccc(F)cc1F	3 isolates	Geometric mean MIC	-	0.63 µg/mL
CCC(C)n1ncn(-c2ccc(N3CCN(c4ccc(OC[C@H]5CO[C@](Cn6cncn6)(c6ccc(Cl)cc6Cl)O5)cc4)CC3)cc2)c1=O	62 isolates	MIC50	-	0.25 µg/mL
C[C@@H](c1ncncc1F)[C@](O)(Cn1cncn1)c1ccc(F)cc1F	28 isolates	MIC90	-	0.06 µg/mL
CC[C@@]1(O)C(=O)OCc2c1cc1n(c2=O)Cc2cc3c(CN(C)C)c(O)ccc3nc2-1	NCPF 2010	MIC	-	>100 µM
CCOC(=O)c1sc(SC)c(C#N)c1O	AF-27	MIC	-	>100 µg/mL
CCCCC/C=C\C/C=C\CCCCCCCC(=O)N[C@H]1C[C@@H](O)[C@@H](O)NC(=O)[C@@H]2[C@@H](O)[C@@H](C)CN2C(=O)[C@H]([C@H](C)O)NC(=O)[C@H]([C@H](O)[C@@H](O)c2ccc(O)cc2)NC(=O)[C@@H]2C[C@@H](O)CN2C(=O)[C@H]([C@H](C)O)NC1=O	-	MIC	-	>20 µg/mL
COC(=O)N[C@H](C(=O)NN(CC[C@@]1(Cc2ccccc2)C(=O)N(C2c3ccccc3C[C@H]2O)C[C@H]1O)Cc1ccc(Br)cc1)C(C)(C)C	RCMB 002003	MIC	agar	15.6 µg/mL
COc1cc(O)c2c(c1)C(=O)c1c(cc3c(c1O)-c1c(cc(C)c(C(=O)NC(CO)C(=O)O)c1O)[C@H](OC1OC(C)C(O)C(OC4OCC(O)C(O)C4O)C1O)C3O)C2=O	35 isolates	MIC50	-	8 µg/mL
C[C@@H](n1ccn(-c2ccc(OC(F)(F)C(F)F)cc2)c1=O)C(O)(Cn1cncn1)c1ccc(F)cc1F	TIMM1728	MIC	-	1 µg/mL
Cc1ccc(C2=NN(Cc3n[nH]c(=S)n3-c3ccc(Br)cc3)C(=O)CC2)cc1	-	MIC	-	8 µg/mL
CCC(C)n1ncn(-c2ccc(N3CCN(c4ccc(OC[C@H]5CO[C@](Cn6cncn6)(c6ccc(Cl)cc6Cl)O5)cc4)CC3)cc2)c1=O	35 isolates	MFC90	-	16 µg/mL
Cc1ccc(C2=NN(Cc3n[nH]c(=S)n3-c3ccccc3)C(=O)CC2)cc1	-	MIC	-	8 µg/mL
CCCCCCS(=O)(=O)[C@H](C)[C@](O)(Cn1cncn1)c1ccc(F)cc1F	MTU6001	MIC	-	6.25 µg/mL
O=C1CCC(c2ccc(Br)cc2)=NN1Cc1n[nH]c(=S)n1-c1ccc(Cl)cc1	-	MIC	-	7 µg/mL
CCC(C)n1ncn(-c2ccc(N3CCN(c4ccc(OC[C@H]5CO[C@](Cn6cncn6)(c6ccc(Cl)cc6Cl)O5)cc4)CC3)cc2)c1=O	50 strains	Mean MIC	-	0.67 µg/mL
C[C@@H](SCCCCCCCC#N)[C@](O)(Cn1cncn1)c1ccc(F)cc1F	MTU6001	MIC	-	≤0.2 µg/mL
CCOC(=O)c1sc(SC)c(C(=O)OC)c1O	AF-27	MIC	-	25 µg/mL
O=C1CCC(c2ccc(Cl)cc2)=NN1Cc1n[nH]c(=S)n1-c1ccc(Br)cc1	-	MIC	-	5 µg/mL
C[C@@H](N1CCN(c2ccc(C(F)(F)F)cc2)C1=O)C(O)(Cn1cncn1)c1ccc(F)cc1F	IFO6344	MIC	-	1 µg/mL
COC(=O)N[C@H](C(=O)NN(CC[C@@]1(Cc2ccccc2)C(=O)N(C2c3ccccc3C[C@H]2O)C[C@@H]1O)Cc1ccc(-c2ccccn2)cc1)C(C)(C)C	RCMB 002003	MIC	agar	15.6 µg/mL
C[C@@H]([C@H](N)C(=O)N[C@H](C(=O)O)[C@H]1O[C@@H](n2ccc(=O)[nH]c2=O)[C@H](O)[C@@H]1O)[C@H](O)c1ccc(O)cn1	10AF	MFC	-	800 µg/mL
COC(=O)N[C@H](C(=O)NN(CC[C@@]1(Cc2ccccc2)C(=O)N(C2c3ccccc3C[C@H]2O)C[C@H]1O)Cc1ccc(-c2ccncc2)cc1)C(C)(C)C	RCMB 002003	MIC	agar	7.8 µg/mL
O=C1CCC(c2ccc(Oc3ccccc3)cc2)=NN1Cc1n[nH]c(=S)n1-c1ccc(Br)cc1	-	MIC	-	14 µg/mL
O=C(Nc1c(F)cccc1F)OCCCN1CCN(c2nc3ccccc3s2)CC1	CF1003	MIC	-	0.15 µg/mL
COC(=O)N[C@H](C(=O)NN(CC[C@@]1(Cc2ccccc2)C(=O)N(C2c3ccccc3C[C@H]2O)C[C@@H]1O)Cc1ccc(-c2cccnc2)cc1)C(C)(C)C	RCMB 002003	MIC	agar	15.6 µg/mL
CCC(C)n1ncn(-c2ccc(N3CCN(c4ccc(OC[C@H]5CO[C@](Cn6cncn6)(c6ccc(Cl)cc6Cl)O5)cc4)CC3)cc2)c1=O	94 isolates	Geometric mean MIC	-	0.45 µg/mL
C[C@@H](N1CCN(c2ccc(OC(F)(F)F)cc2)C1=O)C(O)(Cn1cncn1)c1ccc(F)cc1F	437	MIC	-	1 µg/mL
O=C1CCC(c2ccccc2)=NN1Cc1n[nH]c(=S)n1-c1ccc(Cl)cc1	-	MIC	-	4 µg/mL
CS[C@H](C)[C@](O)(Cn1cncn1)c1ccc(F)cc1F	MTU6001	MIC	-	1.56 µg/mL
COc1cccc2c1C(=O)c1c(O)c3c(c(O)c1C2=O)C[C@@](O)(C(=O)CO)C[C@@H]3O[C@H]1C[C@H](N)[C@@H](O)[C@H](C)O1	NCPF 2010	MIC	-	>100 µM
C[C@H]1[C@H](O)[C@@H](C)/C=C/C=C/C=C/C=C/C=C/C=C/C=C/[C@H](O[C@@H]2O[C@H](C)[C@@H](O)[C@H](N)[C@@H]2O)C[C@@H]2O[C@](O)(C[C@@H](O)C[C@@H](O)CC[C@H](O)[C@@H](O)C[C@@H](O)CC(=O)O[C@H]1C)C[C@H](O)[C@H]2C(=O)O	62 isolates	MIC50	-	0.25 µg/mL
C[C@@H](n1ccn(-c2ccc(F)cc2)c1=O)C(O)(Cn1cncn1)c1ccc(F)cc1F	TIMM1728	MIC	-	8 µg/mL
COC(=O)N[C@H](C(=O)NN(CCC[C@@]1(Cc2ccccc2)C(=O)N(C2c3ccccc3C[C@H]2O)C[C@H]1O)Cc1ccc(Br)cc1)C(C)(C)C	RCMB 002003	MIC	agar	15.6 µg/mL
CCOC(=O)c1sc(SC)cc1-c1ccc(C)cc1	AF-27	MIC	-	>100 µg/mL
CCC(C)CCCCCCC1CC(=O)NCC(=O)N[C@@H](CCCN)C(=O)N[C@@H](C(C)C)C(=O)N1	IFM41088	MIC	-	>80 µg/mL
C[C@@H](n1ccn(-c2ccc(OCC(F)(F)C(F)F)cc2)c1=O)C(O)(Cn1cncn1)c1ccc(F)cc1F	IFO6344	MIC	-	2 µg/mL
CC[C@@]1(O)C[C@H](O[C@H]2C[C@H](N(C)C)[C@H](O[C@H]3C[C@H](O)[C@H](O[C@H]4CCC(=O)[C@H](C)O4)[C@H](C)O3)[C@H](C)O2)c2c(cc3c(c2O)C(=O)c2c(O)cccc2C3=O)[C@H]1C(=O)OC	NCPF 2010	MIC	-	>100 µM
CCCCCCCS(=O)(=O)[C@H](C)[C@](O)(Cn1cncn1)c1ccc(F)cc1F	MTU6001	MIC	-	3.13 µg/mL
COC(=O)N[C@H](C(=O)NN(CC[C@@]1(Cc2ccccc2)C(=O)N(C2c3ccccc3C[C@H]2O)C[C@@H]1O)Cc1ccc(-c2ccncc2)cc1)C(C)(C)C	RCMB 002003	MIC	agar	15.6 µg/mL
CCCCCCCCCS[C@H](C)[C@](O)(Cn1cncn1)c1ccc(F)cc1F	MTU6001	MIC	-	0.78 µg/mL
Cc1ccc(C(C)C)cc1	ATCC 46645	MLC	-	>20 µg/mL
C[C@@H](n1ccn(-c2ccc(OC(F)(F)C(F)F)cc2)c1=O)C(O)(Cn1cncn1)c1ccccc1F	TIMM1728	MIC	-	2 µg/mL
CCOC(=O)c1sc(SC)cc1-c1ccc(Cl)cc1	AF-27	MIC	-	>100 µg/mL

7 of the rows above, restated:

CCC(C)n1ncn(-c2ccc(N3CCN(c4ccc(OC[C@H]5CO[C@](Cn6cncn6)(c6ccc(Cl)cc6Cl)O5)cc4)CC3)cc2)c1=O ; strain: 94 isolates ; endpoint: Geometric mean MIC ; result: 0.45 µg/mL
C[C@@H](N1CCN(c2ccc(OC(F)(F)F)cc2)C1=O)C(O)(Cn1cncn1)c1ccc(F)cc1F ; strain: 437 ; endpoint: MIC ; result: 1 µg/mL
CC[C@@]1(O)C(=O)OCc2c1cc1n(c2=O)Cc2cc3c(CN(C)C)c(O)ccc3nc2-1 ; strain: NCPF 2010 ; endpoint: MIC ; result: >100 µM
C[C@@H](SCCCCCCCC#N)[C@](O)(Cn1cncn1)c1ccc(F)cc1F ; strain: MTU6001 ; endpoint: MIC ; result: ≤0.2 µg/mL
O=C1CCC(c2ccccc2)=NN1Cc1n[nH]c(=S)n1-c1ccc(Cl)cc1 ; endpoint: MIC ; result: 4 µg/mL
CCCCCCCCCS[C@H](C)[C@](O)(Cn1cncn1)c1ccc(F)cc1F ; strain: MTU6001 ; endpoint: MIC ; result: 0.78 µg/mL
O=C(Nc1c(F)cccc1F)OCCCN1CCN(c2nc3ccccc3s2)CC1 ; strain: CF1003 ; endpoint: MIC ; result: 0.15 µg/mL